The values that follow come from patent US12291651B2, “Liquid crystal-infused slippery anti-fouling surfaces” (priority 2021, dated 2025).

Data set [1] in a line: Droplet sliding time on E7-infused (LC-infused) PTFE SLIPS. As to conditions: for bulk surfactant concentration giving average sliding time 58-62 s (~1 min): water droplets, E7-infused SLIPS; for difference in sliding time (Δt) versus PBS droplet: 100 μM SDS in PBS.
The nature of data set [2]: Droplet sliding time on 5CB-infused PTFE SLIPS. To be noted: for sliding time: PBS droplet with 100 μM SDS.
Data set [3] is described as follows: Droplet sliding time on silicone oil-infused PTFE SLIPS.

For `CCCCCCCCCCCCOCCOCCOCCOCCO` [C12E4], in data set [1] (20°), the “bulk surfactant concentration giving average sliding time 58-62 s (~1 min)” value was 0.1 mM.
Consider `CCCCCCCCCCCCOS(=O)(=O)[O-].[Na+]` [SDS, Sodium dodecyl sulfate], for which the sliding time was roughly 62 s in data set [1] (100 μM SDS in water with 100 mM NaCl); roughly 5 s in data set [1] (50 μL PBS droplet with 10 μM SDS, 4 cm, 20°); roughly 63 s in data set [1] (50 μL PBS droplet with 100 μM SDS, 4 cm, 20° tilt, E7 nematic, ambient temperature); roughly 8 s in data set [1] (PBS droplet with 100 μM SDS, 4 cm, 20°, E7-infused SLIPS at 70° C. (above nematic/isotropic transition)); roughly 63 s in data set [2] (4 cm, 20°, 5CB nematic); roughly 8 s in data set [2] (5CB-infused SLIPS at 37° C. (above nematic/isotropic transition)). For the same compound, the sliding time in data set [3] (PBS droplet with 100 μM SDS, 4 cm, 20°) is roughly 4 s; in data set [3] (PBS droplets with SDS, regardless of SDS concentration), roughly 3 s. Moreover, the “increase of sliding time versus NaCl at 0.5 mM” value in data set [1] (100 μM SDS in water, NaCl at 100 mM) amounted to 15 times. Besides, the “difference in sliding time (Δt) versus PBS droplet” value is 37 ± 3 s in data set [1] (40 μL droplet); 86 ± 11 s in data set [1] (50 μL, sliding angle 17°); 7 ± 2 s in data set [1] (50 μL, sliding angle 23°); 7 ± 2 s in data set [1] (60 μL droplet). Besides, the “bulk surfactant concentration giving average sliding time 58-62 s (~1 min)” value in data set [1] (20°) is on record as 1 mM. Besides, in data set [2] (100 μM SDS droplet on 5CB-infused surfaces), the “times slower than PBS droplets” value is roughly 15 times.
